Earlier results, collected in patent US9597417B2, “Compositions and methods to evaluate hepatobiliary/gastrointestinal health, enterohepatic circulation, and drug interactions” (The United States of America as represented by the …, priority 2013, dated 2017).

Target: choloylglycine hydrolase from Clostridium perfringens (Clostridium perfringens, UniProt P54965)
Conditions: previously shown (ref. 15); cited from earlier work

## C[C@H](CCC(=O)N[C@@H](CCCCNC(=O)C(F)(F)F)C(=O)O)[C@H]1CC[C@H]2[C@@H]3[C@H](O)C[C@@H]4C[C@H](O)CC[C@]4(C)[C@H]3C[C@H](O)[C@]12C
  susceptibility to deconjugation by CGH: susceptible to deconjugation by CGH
